Data reported in publication PMC8863796 (Communications Biology, 2022).

What follows are compounds tested on SARS-CoV-2. Settings: Selectivity index = CC50/EC50.
Type: cell-based

Row | SMILES | SI
1 | COC(=O)N[C@H](C(=O)N1CCC[C@H]1C(=O)Nc1ccc([C@@H]2CC[C@@H](c3ccc(NC(=O)[C@@H]4CCCN4C(=O)[C@@H](NC(=O)OC)C(C)C)cc3)N2c2ccc(C(C)(C)C)cc2)cc1)C(C)C [Ombitasvir] | 175
2 | CC(C)OC(=O)OCOP(=O)(CO[C@H](C)Cn1cnc2c(N)ncnc21)OCOC(=O)OC(C)C [Tenofovir, Tenofovir disoproxil] | 21
3 | CCC(CC)COC(=O)[C@H](C)N[P@](=O)(OC[C@H]1O[C@@](C#N)(c2ccc3c(N)ncnn23)[C@H](O)[C@@H]1O)Oc1ccccc1 [Remdesivir] | 5333
4 | COC(=O)N[C@H](C(=O)N1CCC[C@H]1c1nc2cc([C@H]3CC[C@H](c4cc5nc([C@@H]6CCCN6C(=O)[C@@H](NC(=O)OC)[C@@H](C)OC)[nH]c5cc4F)N3c3cc(F)c(N4CCC(c5ccc(F)cc5)CC4)c(F)c3)c(F)cc2[nH]1)[C@@H](C)OC [Pibrentasvir] | 31
5 | NC(=O)c1nc(F)cnc1O [Favipiravir, 6-fluoro-3-hydroxy-2-pyrazinecarboxamide] | 85
6 | CC(C)OC(=O)[C@H](C)N[P@](=O)(OC[C@H]1O[C@@H](n2ccc(=O)[nH]c2=O)[C@](C)(F)[C@@H]1O)Oc1ccccc1 [Sofosbuvir] | 82
